Anti-infective test results gathered from many reports (values: NIAID ChemDB through PubChem).

Shared fields: target-level tests; species: HIV-1; protein: Protease

An empty or dashed field is not shown. Two numbers with a dash give a range or band. Rows are shuffled and stem from different studies. ICn: concentration for n% inhibition.

compound,conditions,read by,read-out,strain or isolate,result
CC(C)[C@H](NC(=O)[C@H](C)N)C(=O)N[C@@H](Cc1ccccc1)[C@H](O)CNC[C@@H](O)[C@H](Cc1ccccc1)NC(=O)OC(C)(C)C,pH 5.5,HPLC,IC50,,<10 µM
CC[C@H](C)[C@H](NC(=O)[C@@H](NC(=O)CCCCCCCCCCCCCCC(=O)N[C@@H](CS(C)(=O)=O)C(=O)N[C@@H](Cc1ccccc1)C(=O)O)C(C)O)C(=O)N[C@@H](Cc1ccccc1)C(N)=O,,HPLC,IC50,,1.17 µM
CC(C)(C)OC(=O)N[C@@H](Cc1ccccc1)[C@H](O)CNC[C@@H](O)[C@H](Cc1ccccc1)NC(=O)O[C@H]1CCc2ccccc21,pH 5.5,HPLC,IC50,,<10 µM
CC(C)C[C@H](NC(=O)[C@@H](NC(=O)CCCCCCCCCCCCCCC(=O)N[C@@H](Cc1ccc(N)cc1)C(=O)N[C@@H](Cc1ccccc1)C(=O)O)C(C)O)C(=O)N[C@H](C(N)=O)C1CCCCC1,,HPLC,IC50,,0.9 µM
CC(C)C[C@H](N)C(=O)N[C@H](C(=O)N[C@@H](Cc1ccccc1)[C@H](O)CNC[C@@H](O)[C@H](Cc1ccccc1)NC(=O)OC(C)(C)C)C(C)C,pH 5.5,HPLC,IC50,,<10 µM
COc1ccc(S(=O)(=O)N(CC(C)C)C[C@@H](O)C[C@@H](CNCC(C)C)Cc2ccccc2)cc1,pH 4.7,HPLC,Ki,IIIB,5 µM
CC(C)(C)NC(=O)[C@H]1CCCN1C(=O)[C@@H](Cc1ccccc1)N(O)C(=O)[C@H](Cc1ccccc1)NC(=O)OCC1c2ccccc2-c2ccccc21,,HPLC,IC50,,2.52 µM
COc1ccc(S(=O)(=O)N(CC(C)C)C[C@@H](O)CCN(CCC2CCCC2)C(=O)O[C@H]2CCOC2)cc1,pH 4.7,HPLC,Ki,IIIB,>10 µM
CC(C)[C@@H](C(=O)N[C@@H](Cc1ccccc1)[C@H](O)C(=O)N1CSC[C@H]1C(=O)NC(C)(C)C)N(C)C(=O)[C@H](Cc1cccc2ccccc12)NC(=O)CN1CCOCC1,,fluorescence,IC50,,0.0019 µM
CC(C)(C)NC(=O)[C@@H]1CC2CCCCC2N1C(=O)[C@@H](O)[C@H](Cc1ccccc1)NC(=O)[C@H](CS(C)(=O)=O)NC(=O)COc1cccc2ccccc12,,,IC50,,>0.05 µM
COc1cc(O)cc(O)c1C(=O)[C@@H]1[C@H](CC=C(C)C)C(C)=CC[C@H]1c1ccc(O)cc1,,HPLC,IC50,,>100 µM
O=C(N[C@H]1c2ccccc2C[C@H]1O)[C@H](Cc1ccccc1)C[C@H](O)CN1C(=O)[C@@H](Cc2ccccc2)C[C@@H]1Cc1ccccc1,,,Ki,,0.05 µM
COc1cc(O)cc(O)c1C(=O)CCc1ccccc1,,HPLC,IC50,,>100 µM
CC(O)[C@H](NC(=O)CCCCCCCCCCCCCCC(=O)N[C@@H](Cc1ccc(N)cc1)C(=O)N[C@@H](Cc1ccccc1)C(=O)O)C(=O)N[C@@H](CC1CCCCC1)C(=O)N[C@@H](Cc1ccccc1)C(N)=O,,HPLC,IC50,,0.87 µM
Cc1c(O)cccc1C(=O)N[C@@H](Cc1ccccc1)C(=O)N(O)[C@@H](Cc1ccccc1)C(=O)N1CCC[C@@H]1C(=O)NC(C)(C)C,,HPLC,IC50,,0.89 µM
CC(C)[C@H](NC(=O)OC(C)(C)C)C(=O)N[C@@H](Cc1ccccc1)[C@H](O)CNC[C@@H](O)[C@H](Cc1ccccc1)NC(=O)OC(C)(C)C,pH 5.5,HPLC,IC50,,~10 µM
COC(=O)c1cc(O)c(O)c(O)c1,,HPLC,IC50,,>100 µM
CC(C)(C)NC(=O)[C@H]1CCCN1C(=O)[C@H](Cc1ccccc1)N(O)C(=O)[C@H](Cc1ccccc1)NC(=O)OCC1c2ccccc2-c2ccccc21,,HPLC,IC50,,0.144 µM
CC(C)[C@H](N)C(=O)N[C@H](C(=O)N[C@@H](Cc1ccccc1)[C@H](O)C(=O)N[C@@H](Cc1ccccc1)C(=O)N[C@H](C(=O)N[C@H](C(N)=O)C(C)C)C(C)C)C(C)C,,,IC50,,<5 µM
CC(C)[C@H](NC(=O)OCc1ccccc1)C(=O)N[C@@H](Cc1ccccc1)P(C)(=O)[C@H](Cc1ccccc1)NC(=O)[C@@H](NC(=O)OCc1ccccc1)C(C)C,,HPLC,Ki,,>1000 µM
CC(C)[C@H](NC(=O)Cc1nc2ccccc2[nH]1)C(=O)N[C@@H](Cc1ccccc1)[C@H](O)CNC[C@@H](O)[C@H](Cc1ccccc1)NC(=O)OC(C)(C)C,pH 5.5,HPLC,IC50,,<10 µM
CC(C)[C@@H](C(=O)N[C@@H](Cc1ccccc1)[C@H](O)C(=O)N1CSC[C@H]1C(=O)NC(C)(C)C)N(C)C(=O)[C@H](Cc1cccc2ccccc12)NC(=O)CCN1CCOCC1,,fluorescence,IC50,,0.0014–0.0033 µM
CC(C)C[C@H](NC(=O)CCCCCCCCCCCCCCC(=O)N[C@@H](CC(N)=O)C(=O)N[C@@H](Cc1cccc2ccccc12)C(=O)O)C(=O)N[C@@H](CC(C)C)C(=O)N[C@@H](Cc1ccccc1)C(N)=O,,HPLC,IC50,,0.39 µM
C[C@H](CS(C)(=O)=O)C(=O)N[C@@H](Cc1ccccc1)[C@H](O)CN1C[C@H]2CCCC[C@H]2C[C@H]1C(=O)NC(C)(C)C,,fluorescence,IC50,,0.002 µM
CC[C@@H](C)[C@H](NC(=O)[C@@H]1CCCN1C(=O)[C@@H](O)[C@H](CC1CCCCC1)NC(=O)[C@H](CC(N)=O)NC(=O)OCC1c2ccccc2-c2ccccc21)C(=O)N[C@H](C(N)=O)C(C)C,,,IC50,,<5 µM
CC(C)[C@@H](C(=O)N[C@@H](Cc1ccccc1)[C@H](O)C(=O)N1CSC[C@H]1C(=O)NC(C)(C)C)N(C)C(=O)[C@H](Cc1cccc2ccccc12)NC(=O)CN(C)C,,fluorescence,IC50,,0.0013 µM
Cc1c(O)cccc1C(=O)N(O)CC(=O)N1CCC[C@@H]1C(=O)NC(C)(C)C,,HPLC,IC50,,2.8 µM
O=c1c(O[C@@H]2O[C@H](CO)[C@H](O)[C@H](O)[C@H]2O)c(-c2ccc(O)c(O)c2)oc2cc(O)cc(O)c12,,HPLC,IC50,,>100 µM
CC(CNC(=O)[C@@H]1CSCN1C(=O)[C@@H](O)[C@H](Cc1ccccc1)NC(=O)[C@H](CS(C)(=O)=O)NC(=O)COc1cccc2ccccc12)C(N)=O,,,IC50,,~0.05 µM
CSCC[C@H](NC(=O)CCCCCCCCCCCCCCC(=O)N[C@H](C(=O)N[C@@H](CC(C)C)C(=O)N[C@@H](Cc1ccc(-c2ccccc2)cc1)C(N)=O)C(C)O)C(=O)N[C@@H](Cc1ccccc1)C(=O)O,,HPLC,IC50,,0.46 µM
CC(C)(C)NC(=O)[C@@H]1CSCN1C(=O)[C@@H](O)[C@H](Cc1ccccc1)NC(=O)[C@H](CS(C)(=O)=O)NC(=O)COc1cccc2ccccc12,,,IC50,,<0.05 µM
CSCC[C@H](NC(=O)CCCCCCCCCCCCCCC(=O)N[C@@H](CC(N)=O)C(=O)N[C@@H](Cc1cccc2ccccc12)C(=O)O)C(=O)N[C@@H](CC(C)C)C(=O)N[C@@H](Cc1ccccc1)C(N)=O,,HPLC,IC50,,0.37 µM

2 of the rows above, restated:

compound,conditions,read by,read-out,strain or isolate,result
CC(C)(C)NC(=O)[C@H]1CCCN1C(=O)[C@H](Cc1ccccc1)N(O)C(=O)[C@H](Cc1ccccc1)NC(=O)OCC1c2ccccc2-c2ccccc21,,HPLC,IC50,,0.144 µM
COc1cc(O)cc(O)c1C(=O)CCc1ccccc1,,HPLC,IC50,,>100 µM